A mixed list of measured activities; the numbers were collected in NIAID ChemDB.

Common to all: growth or infection tests; agent: Mycobacterium avium complex

A number after MIC or MFC names an inhibition level or a share of isolates. Two numbers with a dash give a range or band. Rows are shuffled and stem from different studies.

| structure | strain or isolate | read-out | value |
|---|---|---|---|
| COc1ccc(/C(C)=N/NC(N)=S)cc1 | 101 | MIC | 0.125 µg/mL |
| CC1(C)N=C(N)N=C(N)N1OCCCOc1cc(Cl)c(Cl)cc1Cl | 1928 | MIC | 2 µg/mL |
| Cc1c(CNc2cccc3ncccc23)cnc2nc(N)nc(N)c12 | NJ168 | MIC | ≤0.13 µg/mL |
| CCc1nc(N)nc(N)c1-c1ccc(Cl)cc1 | DW11 | MIC | 16 µg/mL |
| COc1ccc(C(F)(F)F)cc1NCc1cnc2nc(N)nc(N)c2c1C | NJ211 | MIC | ≤0.13 µg/mL |
| CO[C@H]1/C=C/O[C@@]2(C)Oc3c(C)c(O)c4c(O)c(c5c(c4c3C2=O)NC2(CCN(CC(C)C)CC2)N=5)=NC(=O)/C(C)=C\C=C\[C@H](C)[C@H](O)[C@@H](C)[C@@H](O)[C@@H](C)[C@H](OC(C)=O)[C@@H]1C | ATCC49601 | MIC | 0.5 µg/mL |
| CC[C@H]1OC(=O)[C@H](C)[C@@H](O[C@H]2C[C@@](C)(OC)[C@@H](OC(C)=O)[C@H](C)O2)[C@H](C)[C@@H](O[C@@H]2O[C@H](C)C[C@H](N(C)C)[C@H]2O)C(C)(O)C[C@@H](C)/C(=N\OCC2CCCCC2)[C@H](C)[C@@H](O)[C@]1(C)O | 20092 (clarithromycin-resistant) | MIC | 6.25 µg/mL |
| CN[C@@H]1[C@H](O[C@H]2[C@H](O[C@H]3[C@H](O)[C@@H](O)[C@H](N=C(N)N)[C@@H](O)[C@@H]3N=C(N)N)O[C@@H](C)[C@]2(O)C=O)O[C@@H](CO)[C@H](O)[C@H]1O | N-265 (HIV-) | MIC | 8 µg/mL |
| CC[C@H]1OC(=O)[C@H](C)[C@@H](O[C@H]2C[C@@](C)(OC)[C@@H](OC(C)=O)[C@H](C)O2)[C@H](C)[C@@H](O[C@@H]2O[C@H](C)C[C@H](N(C)C)[C@H]2OC(=O)NNCCOc2ccccc2)C(C)(O)C[C@@H](C)/C(=N\OCCCC2CCCCC2)[C@H](C)[C@@H](O)[C@]1(C)O | 20096 (clarithromycin-resistant) | MIC | 1.56 µg/mL |
| CCN=c1cc2n(-c3ccc(Cl)cc3)c3ccccc3nc-2cc1Nc1ccc(Cl)cc1 | 1625 | MBC | 2 µg/mL |
| CC1(C)N=C(N)N=C(N)N1OCCCOc1cc(Cl)c(Cl)cc1Cl | DW22 | MIC | 4 µg/mL |
| NNC(=O)c1ccncc1 | N-289 (HIV-) | MIC | 4 µg/mL |
| NNC(=O)c1ccncc1 | 13032 | MIC | 0.63–0.8 µg/mL |
| CCCCCCC(=O)O[C@H]1[C@H](C)[C@@H](O[C@@H]2O[C@H](C)C[C@H](N(C)C)[C@H]2O)C(C)(O)C[C@@H](C)/C(=N\OCCCOc2ccccc2)[C@H](C)[C@@H](O)[C@](C)(O)[C@@H](CC)OC(=O)[C@@H]1C | 20096 (clarithromycin-resistant) | MIC | 3.13 µg/mL |
| CN1CCCC1CCN=c1cc2n(-c3ccc(Cl)cc3)c3ccccc3nc-2cc1Nc1ccccc1 | 10 strains (HIV+) | MIC90 | 2 µg/mL |
| Cc1cc(NCc2cnc3nc(N)nc(N)c3c2C)ccc1Br | NJ168 | MIC | ≤0.13 µg/mL |
| CO[C@H]1/C=C/O[C@@]2(C)Oc3c(C)c(O)c4c(O)c(c5c(c4c3C2=O)NC2(CCN(CC(C)C)CC2)N=5)=NC(=O)/C(C)=C\C=C\[C@H](C)[C@H](O)[C@@H](C)[C@@H](O)[C@@H](C)[C@H](OC(C)=O)[C@@H]1C | N-314 (HIV-) | MIC | 1.6 µg/mL |
| Cc1c(CNc2cnc3ccccc3c2)cnc2nc(N)nc(N)c12 | NJ3404 | MIC | ≤0.13 µg/mL |
| C[C@@H]1CN(c2c(F)c(N)c3c(=O)c(C(=O)O)cn(C4CC4)c3c2F)C[C@H](C)N1 | Isolate 90-0779 | MIC | 0.5 µg/mL |
| Cc1c(CNc2ccc(OC(F)F)cc2)cnc2nc(N)nc(N)c12 | NJ3404 | MIC | ≤0.13 µg/mL |
| CC[C@H]1OC(=O)[C@H](C)[C@@H](O[C@H]2C[C@@](C)(OC)[C@@H](OC(C)=O)[C@H](C)O2)[C@H](C)[C@@H](O[C@@H]2O[C@H](C)C[C@H](N(C)C)[C@H]2O)C(C)(O)C[C@@H](C)/C(=N\OCc2ccccc2)[C@H](C)[C@@H](O)[C@]1(C)O | 20092 (clarithromycin-resistant) | MIC | 25 µg/mL |
| COc1ccc(OC)c(NCc2cnc3nc(N)nc(N)c3c2C)c1 | NJ211 | MIC | ≤0.13 µg/mL |
| CO[C@H]1/C=C/O[C@@]2(C)Oc3c(C)c(O)c4c(=O)c(c5oc6cc(N7CCN(CC(C)C)CC7)cc(=O)c6nc5c4c3=C2O)NC(=O)/C(C)=C\C=C\[C@H](C)[C@H](O)[C@@H](C)[C@@H](O)[C@@H](C)[C@H](OC(C)=O)[C@@H]1C | N-945 (HIV+) | MIC | 0.05 µg/mL |

2 of the rows above, restated:

structure	strain or isolate	read-out	value
Cc1cc(NCc2cnc3nc(N)nc(N)c3c2C)ccc1Br	NJ168	MIC	≤0.13 µg/mL
COc1ccc(/C(C)=N/NC(N)=S)cc1	101	MIC	0.125 µg/mL